{"source": "PubChem BioAssay AID1259414 – Drosophila RNAi Screening Center, 2018", "assay": "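Genome-wide screen for host control of endosymbiont load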 (primary screen)", "cells": "Drosophila JW18 cells infected with Wolbachia", "knock-down reagent": "long dsRNA against Drosophila genes, 0.25 µg dsRNA per well of a 384-well plate", "time to read-out": "5 days", "conditions": "cells persistently infected with Wolbachia before knock-down; no added drug", "measurement": "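Automated imaging of bacterial rRNA staining divided by host cell count, reported as plate-normalised robust z-score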", "direction": "Wolbachia per cell robust z: higher = more Wolbachia per host cell than the plate typical", "call rule": "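Active if absolute robust z reaches 1.5 in two or more of three replicates, leaving out multi- or no-target dsRNAs, genes unexpressed in JW18 and A1 wells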", "note": "In all, the deposit lists about 24,000 reagents; below is a random part of those with a known target gene and a result. Of all reagents, about 1,210 (5%) were called active. 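Inactive calls also include excluded dsRNAs with several or no targets, genes unexpressed in JW18, and well A1, regardless of score.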 Reagents against one gene are numbered here."}
The opening 2 entries, to show the layout:
{"gene":"CG7514","reagent":1,"Wolbachia per cell robust z, rep 1":0.401,"Wolbachia per cell robust z, rep 2":1.04,"Wolbachia per cell robust z, rep 3":-5.54,"Outcome":"inactive"}
{"gene":"CG7514","reagent":2,"Wolbachia per cell robust z, rep 1":0.387,"Wolbachia per cell robust z, rep 2":1.4,"Wolbachia per cell robust z, rep 3":0.395,"Outcome":"inactive"}

Results, from the first entry:
{"gene":"CG7514","reagent":1,"Wolbachia per cell robust z, rep 1":0.401,"Wolbachia per cell robust z, rep 2":1.04,"Wolbachia per cell robust z, rep 3":-5.54,"Outcome":"inactive"}
{"gene":"CG7514","reagent":2,"Wolbachia per cell robust z, rep 1":0.387,"Wolbachia per cell robust z, rep 2":1.4,"Wolbachia per cell robust z, rep 3":0.395,"Outcome":"inactive"}
{"gene":"dmt","reagent":1,"Wolbachia per cell robust z, rep 1":0.813,"Wolbachia per cell robust z, rep 2":0.932,"Wolbachia per cell robust z, rep 3":1.85,"Outcome":"inactive"}
{"gene":"CG9444","reagent":1,"Wolbachia per cell robust z, rep 1":-0.197,"Wolbachia per cell robust z, rep 2":-6.92,"Wolbachia per cell robust z, rep 3":-0.827,"Outcome":"inactive"}
{"gene":"Ir52d","reagent":1,"Wolbachia per cell robust z, rep 1":0.0513,"Wolbachia per cell robust z, rep 2":0.373,"Wolbachia per cell robust z, rep 3":-0.971,"Outcome":"inactive"}
{"gene":"CG15212","reagent":1,"Wolbachia per cell robust z, rep 1":-0.667,"Wolbachia per cell robust z, rep 2":0.929,"Wolbachia per cell robust z, rep 3":0.58,"Outcome":"inactive"}
{"gene":"CG15212","reagent":2,"Wolbachia per cell robust z, rep 1":1.09,"Wolbachia per cell robust z, rep 2":-0.893,"Wolbachia per cell robust z, rep 3":-2.1,"Outcome":"inactive"}
{"gene":"CG12849","reagent":1,"Wolbachia per cell robust z, rep 1":0.464,"Wolbachia per cell robust z, rep 2":-0.847,"Wolbachia per cell robust z, rep 3":0.185,"Outcome":"inactive"}
{"gene":"TfIIB","reagent":1,"Wolbachia per cell robust z, rep 1":0.241,"Wolbachia per cell robust z, rep 2":-1.99,"Wolbachia per cell robust z, rep 3":0.515,"Outcome":"inactive"}
{"gene":"BtbVII","reagent":1,"Wolbachia per cell robust z, rep 1":1.29,"Wolbachia per cell robust z, rep 2":1.22,"Wolbachia per cell robust z, rep 3":1.71,"Outcome":"inactive"}
{"gene":"BtbVII","reagent":2,"Wolbachia per cell robust z, rep 1":0.816,"Wolbachia per cell robust z, rep 2":0.766,"Wolbachia per cell robust z, rep 3":0.231,"Outcome":"inactive"}
{"gene":"BtbVII","reagent":3,"Wolbachia per cell robust z, rep 1":1.76,"Wolbachia per cell robust z, rep 2":0.969,"Wolbachia per cell robust z, rep 3":-4.79,"Outcome":"inactive"}
